Values from PubChem BioAssay AID624099 (ICCB-Longwood, 2012).

Screen: 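Human genes that papillomavirus E2 requires to repress the HPV18 LCR promoter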 (primary screen)
Cell system: human C33A cervical carcinoma cells (HPV-negative) stably expressing BPV1 E2 and an HPV18 LCR luciferase reporter
Reagent: siRNA pool against human genes, 40 nM
Duration: 72 h
Measurement: 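Per-well luciferase luminescence, z-scored on each plate against the plate mean and SD with control wells left out, then averaged across three replicate plates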
Reading the numbers: mean z-score and z-score: higher = stronger reporter signal, weaker E2 silencing
Hit rule: 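Hit if mean z-score reaches 2 and two or more of three replicate z-scores also reach 2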
In all, the deposit lists about 21,000 reagents; shown is a random part of them. 497 of all reagents (2.4%) count as active. 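Higher z means weaker E2 silencing; only reporter increases were scored, and knock-downs that hurt cell survival may mask genuine repressor factors.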 Unmarked entries are inactive. No sequences are given here.

Gene | PubChem SID | mean z-score | z-score, replicate A | z-score, replicate B | z-score, replicate C
PLGRKT | SID134324148 | 1.44 | 1.42 | 1.29 | 1.61
SLC7A5 | SID134310680 | 0.2 | 0.19 | 0.33 | 0.07
LINC02864 | SID134328879 | 1.9 | 2.15 | 1.62 | 1.92
GABRA2 | SID134311582 | -0.1 | -0.25 | -0.06 | 0.02
PKP1 | SID134316809 | -0.45 | -0.5 | -0.32 | -0.54
BLID | SID134329791 | 0.16 | 0.3 | 0.13 | 0.06
LOC389663 (retired record) | SID134328010 | -0.55 | -0.77 | -0.64 | -0.24
LOC387805 (retired record) | SID134328295 | -1.29 | -1.23 | -1.51 | -1.12
IGHMBP2 | SID134323433 | -0.29 | -0.17 | -0.25 | -0.44
PCBP3 | SID134317433 | -1.26 | -1.07 | -1.03 | -1.67
SELENOV | SID134323113 | 0.41 | 0.46 | 0.25 | 0.51
LINC00525 | SID134319058 | -0.32 | -0.06 | -0.58 | -0.32
ZNF271P | SID134319701 | 0.02 | 0.1 | 0.07 | -0.1
CELP | SID134315316 | -0.56 | -0.84 | -0.45 | -0.41
LOC401123 (retired record) | SID134329648 | -0.22 | -0.15 | -0.25 | -0.25
TIMM17B | SID134323792 | 0.48 | 0.56 | 0.46 | 0.41
OAZ3 | SID134317573 | -0.81 | -0.73 | -0.81 | -0.89
SSH3 | SID134313778 | -0.37 | -0.52 | -0.33 | -0.24
DNAJC30 | SID134321443 | 0.09 | 0.03 | -0.03 | 0.28
SNRNP27 | SID134317014 | 0.2 | 0.23 | 0.37 | -0.01
ELANE | SID134311288 | -0.52 | -0.74 | -0.65 | -0.18
CIMAP1A | SID134319249 | 0.74 | 1.44 | 0.19 | 0.57
SENP6 | SID134311466 | 0.55 | 0.7 | 0.41 | 0.54
ITGAL | SID134312940 | -0.17 | 0.15 | -0.43 | -0.24
BCL6 | SID134315918 | 0.2 | 0.39 | 0 | 0.21
NUTF2P4 | SID134325090 | -0.36 | -0.53 | -0.41 | -0.16
RNF123 | SID134312164 | 0.17 | 0.36 | -0.02 | 0.18
SNTG1 | SID134324833 | -1 | -0.88 | -0.99 | -1.13
RNF113A | SID134311909 | -0.29 | -0.16 | -0.58 | -0.12
UQCC1 | SID134321885 | 0.12 | 0 | 0.01 | 0.35
PTPN22 | SID134312998 | -0.46 | -0.16 | -0.71 | -0.51
MIOS | SID134324786 | 1.84 | 1.69 | 2 | 1.83
EIF3D | SID134321487 | -2.87 | -2.71 | -2.93 | -2.98
LINC00642 | SID134328503 | -0.78 | -0.58 | -0.78 | -0.97
KYNU | SID134314566 | 0 | 0.14 | 0.23 | -0.36
UIMC1 | SID134312119 | 0.59 | 0.8 | 0.82 | 0.16

An excerpt from the list above, for reference:
Gene | PubChem SID | mean z-score | z-score, replicate A | z-score, replicate B | z-score, replicate C
SNRNP27 | SID134317014 | 0.2 | 0.23 | 0.37 | -0.01
ELANE | SID134311288 | -0.52 | -0.74 | -0.65 | -0.18
CIMAP1A | SID134319249 | 0.74 | 1.44 | 0.19 | 0.57
SENP6 | SID134311466 | 0.55 | 0.7 | 0.41 | 0.54
ITGAL | SID134312940 | -0.17 | 0.15 | -0.43 | -0.24
BCL6 | SID134315918 | 0.2 | 0.39 | 0 | 0.21
NUTF2P4 | SID134325090 | -0.36 | -0.53 | -0.41 | -0.16
RNF123 | SID134312164 | 0.17 | 0.36 | -0.02 | 0.18
SNTG1 | SID134324833 | -1 | -0.88 | -0.99 | -1.13

Additional results follow:
Gene | PubChem SID | mean z-score | z-score, replicate A | z-score, replicate B | z-score, replicate C
GPR162 | SID134311054 | 0.18 | 1.36 | -0.01 | -0.8
SPTA1 | SID134323495 | -0.5 | -0.64 | -0.47 | -0.41
CALM3 | SID56479289 | 0.18 | -0.22 | 0.43 | 0.33
LMNB1 | SID134310840 | 0.14 | 0.26 | 0.07 | 0.08
PEX12 | SID134323136 | 0.78 | 0.77 | 0.79 | 0.78
MBNL2 | SID134329667 | -0.43 | -0.44 | -0.34 | -0.51
CCDC171 | SID134322333 | 0.59 | 0.25 | 1.17 | 0.36
LINC00323 | SID134329066 | 2.16 (active) | 2.27 | 2.14 | 2.08
CORIN | SID134311258 | 0.91 | 1.21 | 1.19 | 0.34
ZNF283 | SID134328913 | 0.24 | 0.41 | 0.08 | 0.22
MESP2 | SID134325366 | -0.79 | -1.01 | -0.95 | -0.4
RSRC1 | SID134324236 | -0.27 | -0.26 | -0.44 | -0.1
EIF5A | SID134319765 | -0.79 | -1.07 | -0.57 | -0.74
PODXL2 | SID134324400 | 0.22 | -0.28 | 0.63 | 0.32
MT1A | SID134316984 | 1.25 | 1.52 | 1.56 | 0.68
USP17L24 | SID134327480 | 1.13 | 1.45 | 0.75 | 1.19
USP17L24 | SID134327481 | 0.87 | 1.18 | 0.57 | 0.88
USP17L24 | SID134327483 | 0.91 | 1.26 | 0.88 | 0.59
USP17L24 | SID134327484 | 1.33 | 1.26 | 1.31 | 1.43
USP17L24 | SID134327485 | 0.48 | 0.22 | 0.58 | 0.63
USP17L24 | SID134327486 | -0.29 | 0.41 | -1.64 | 0.35
